A mixed list of measured activities; the numbers were collected in NIAID ChemDB.

All rows: tests on isolated targets; agent: HIV-1; target: Integrase

Fold resistance: result on the changed form divided by that on wild type. Lines come from different laboratories, so protocols vary. Inhibition is in % at the dose shown (toxicity tests: loss of growth or viability). a–b is a range or a potency band. ICn: concentration for n% inhibition. An empty or dashed field is not shown.

compound | method | read-out | dose | changes | value
O=C(/C=C/c1ccc(O)c(O)c1)OCCc1cccc(N=C=S)c1 | 3′ processing | fold resistance | - | C65S | 2.67
Cc1ccc(CN(C)C(=O)/C=C(\O)C(=O)O)cc1 | strand transfer | IC50 | - | - | <70 µM
O=c1c(-c2ccncc2)cn2ccn(Cc3ccc(F)cc3)c(=O)c2c1O | ELISA | IC50 | - | - | <0.01 µM
O=C(C1=NS(=O)(=O)c2ccc(Cl)cc2S1)c1ccc2ccccc2c1 | 3′ processing | fold resistance | - | INTG-C65S | 8.13
CC(C)(C)C(=O)c1cn2ccn(Cc3cccc(Cl)c3)c(=O)c2c(O)c1=O | ELISA | IC50 | - | - | <0.01 µM
O=C(C1=NS(=O)(=O)c2ccc(Cl)cc2S1)c1ccc(Cl)cc1 | strand transfer | fold resistance | - | INTG-C65S | 1.1
CC(=O)N1CCn2c(nc(C(=O)NCc3ccc(F)cc3)c(O)c2=O)C1CN(C)C | ELISA | IC50 | - | - | <10 µM
O=c1c(-c2ccccn2)cn2ccn(Cc3cccc(Cl)c3F)c(=O)c2c1O | ELISA | IC50 | - | - | <0.01 µM
O=C(/C=C/c1ccc(O)c(O)c1)OCCc1ccc(N=C=S)cc1 | 3′ processing | fold resistance | - | C65S | 1.75
Cc1cc(Cl)cc2c1S(=O)(=O)N=C(C(=O)c1ccc(Cl)c(Cl)c1)S2 | strand transfer | fold resistance | - | INTG-C65S | 0.12
CC1(C)c2nc(C(=O)NCc3ccc(F)cc3)c(O)c(=O)n2CN1Cc1cccnc1 | ELISA | IC50 | - | - | <10 µM
O=C(O)/C(O)=C/C(=O)N(Cc1ccc(F)cc1)Cc1csc2ccc(Cl)cc12 | strand transfer | IC50 | - | - | <70 µM
O=C(/C=C/c1ccc(O)c(O)c1)Oc1ccc2cccc(N=C=S)c2c1 | 3′ processing | fold resistance | - | C65S | 3
O=C(NCCF)c1cn2ccn(Cc3cccc(Cl)c3)c(=O)c2c(O)c1=O | ELISA | IC50 | - | - | <0.01 µM
O=C(NCc1ccc(F)cc1)c1nc2n(c(=O)c1O)CCNC2 | ELISA | IC50 | - | - | <10 µM
Cc1cc(Cl)cc2c1S(=O)(=O)N=C(C(=O)c1ccc(Cl)cc1)S2 | strand transfer | fold resistance | - | INTG-C65S | 2.6
CN(Cc1ccccc1)C(=O)c1cn2c(c(O)c1=O)C(=O)N(Cc1cccc(Cl)c1)CC2 | ELISA | IC50 | - | - | <0.01 µM
CN(CCOc1ccc(Cl)cc1Cc1ccccc1)C(=O)/C=C(\O)C(=O)O | strand transfer | inhibition | 70 µM | - | 75%
O=C1c2c(O)c(=O)c(-c3ccncn3)cn2CCN1Cc1ccc(Cl)cc1 | ELISA | IC50 | - | - | 0.01–0.1 µM
O=C(/C=C/c1ccc(O)c(O)c1)OCCc1ccc(NC(=S)SCCO)cc1 | 3′ processing | fold resistance | - | C56S | 7.67
O=c1c(-c2cc3ccccc3o2)cn2ccn(Cc3cccc(Cl)c3)c(=O)c2c1O | ELISA | IC50 | - | - | 0.01–0.1 µM
O=C(C1=NS(=O)(=O)c2ccc(Cl)cc2S1)c1ccc(Cl)c(Cl)c1 | 3′ processing | fold resistance | - | INTG-C65S | 2.47

The last 3 rows once more:

compound	method	read-out	dose	changes	value
O=C(/C=C/c1ccc(O)c(O)c1)OCCc1ccc(NC(=S)SCCO)cc1	3′ processing	fold resistance	-	C56S	7.67
O=c1c(-c2cc3ccccc3o2)cn2ccn(Cc3cccc(Cl)c3)c(=O)c2c1O	ELISA	IC50	-	-	0.01–0.1 µM
O=C(C1=NS(=O)(=O)c2ccc(Cl)cc2S1)c1ccc(Cl)c(Cl)c1	3′ processing	fold resistance	-	INTG-C65S	2.47